1 protein from patent US20030109675A1 (priority 2001, published 2003) can be followed below.

The target of one data set is T1, PapA-6H4A, P04127.
T1 chain: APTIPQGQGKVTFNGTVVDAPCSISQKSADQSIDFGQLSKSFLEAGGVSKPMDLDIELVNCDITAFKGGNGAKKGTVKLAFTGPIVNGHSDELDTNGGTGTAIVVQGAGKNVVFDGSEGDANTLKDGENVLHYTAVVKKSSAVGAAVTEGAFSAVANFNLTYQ

Data set [1] concerns the target T2, HYTAVVKKSSAV (SEQ ID NO: 3), PapA 12-mer scan peptide.
T2 chain: HYTAVVKKSSAV

In data set [2] the target is T3, SPCJ-13 - Abz-HYTAVVK-DAP(Dnp)-NH2.
T3 chain: HYTAVVK

The target in data set [3] is T4, NGHSDEL (SEQ ID NO: 12), PapA 7-mer scan peptide.
T4 chain: NGHSDEL

Data set [4] concerns the target T5, SPCJ-12 - Abz-HYTAVVKKSSAV-DAP(Dnp)-NH2.
T5 chain: HYTAVVKKSSAV

B1: DegP protease (protein)
chain: AETSSATTAQQMPSLAPMLEKVMPSVVSINVEGSTTVNTPRMPRNFQQFFGDDSPFCQEGSPFQSSPFCQGGQGGNGGGQQQKFMALGSGVIIDADKGYVVTNNHVVDNATVIKVQLSDGRKFDAKMVGKDPRSDIALIQIQNPKNLTAIKMADSDALRVGDYTVAIGNPFGLGETVTSGIVSALGRSGLNAENYENFIQTDAAINRGNSGGALVNLNGELIGINTAILAPDGGNIGIGFAIPSNMVKNLTSQMVEYGQVKRGELGIMGTELNSELAKAMKVDAQRGAFVSQVLPNSSAAKAGIKAGDVITSLNGKPISSFAALRAQVGTMPVGSKLTLGLLRDGKQVNVNLELQQSSQNQVDSSSIFNGIEGAEMSNKGKDQGVVVNNVKTGTPAAQIGLKKGDVIIGANQQAVKNIAELRKVLDSKPSVLALNIQRGDSTIYLLMQ
In the case of B1, the “cleavage of PapA-6H4A that had not been reduced and carboxymethylated” value in the data set with PapA-6H4A, P04127 is on record as “minimal by comparison to its activity on PapA-6H4A-rcm (data not shown)”. In addition, the “cleavage in the solid-phase peptide scan (liberated fluorescence)” value in data set [1] was “the most efficiently cleaved region, represented by the sequence-HYTAVVKKSSAV”; in data set [3], “Of the other sequences identified by the peptide scanning, ... […]”. Moreover, the “cleavage in the fluorescent-quench peptide assay” value in data set [2] is “DegP cleaved SPCJ-13 in a time-dependent fashion”; in data set [4], “DegP cleaved SPCJ-12 in a time-dependent fashion”.
